PubChem BioAssay AID504761, Drosophila RNAi Screening Center | 2011
Purpose: 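Insect host genes that dengue virus relies on to spread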 (primary screen). Cells: D.Mel-2 cells from Drosophila. Knock-down reagent: long dsRNA against Drosophila genes. Challenge: infection with dengue virus type 2; dose and infection time not stated. Measured: 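Cells stained for dengue envelope protein and imaged; percent of infected cells per well on duplicate plates, ranked by infection, with stained nuclei counted for cell number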. Reading the numbers: infection score: higher = more virus-infected cells; cell count: higher = more cells in the well. Rule for the call: 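Very low infection ranking in both replicate wells (chance probability at most 0.065), then a retest showing infection dropped 1.5-fold or more at p below 0.05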. Meaning of the calls: active = confirmed: knock-down lowers infection; inactive = not picked or not confirmed.
In all, the deposit lists about 22,000 reagents; shown is a random part of those with a known target gene and a result. Of all reagents, 116 (0.52%) got an active call. 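Calls depend on retest data that are not deposited; infection was ranked per plate without normalising between plates; the unit of the infection score is not given.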 Raw values are not corrected between plates. Unmarked entries are inactive. Not stated in the record: the amount of reagent, the time to read-out.

GstE13 (Glutathione S transferase E13) [DRSC06083] gave infection score, replicate 1 = 2.95; infection score, replicate 2 = 16.2; cell count, replicate 1 = 6438; cell count, replicate 2 = 6702.
After knock-down of Pp2B-14D (Protein phosphatase 2B at 14D) [DRSC20270], the record shows infection score, replicate 1 = 2.03; infection score, replicate 2 = 2.59; cell count, replicate 1 = 6467; cell count, replicate 2 = 6257.
Pp2B-14D (Protein phosphatase 2B at 14D) [DRSC23315] scored infection score, replicate 1 = 1.78; infection score, replicate 2 = 2.78; cell count, replicate 1 = 6630; cell count, replicate 2 = 6790.
CG33521 [DRSC17211] scored infection score, replicate 1 = 4.67; infection score, replicate 2 = 3.02; cell count, replicate 1 = 6099; cell count, replicate 2 = 5491.
Against CG33521 [DRSC22919] the deposit lists infection score, replicate 1 = 3.42; infection score, replicate 2 = 13.6; cell count, replicate 1 = 6939; cell count, replicate 2 = 5906.
For CG33521 [DRSC29186], the values are infection score, replicate 1 = 17.2; infection score, replicate 2 = 16; cell count, replicate 1 = 4447; cell count, replicate 2 = 5762.
CG15912 [DRSC18105] scored infection score, replicate 1 = 17.6; infection score, replicate 2 = 0.95; cell count, replicate 1 = 4282; cell count, replicate 2 = 420.
For CG15912 [DRSC28275], the values are infection score, replicate 1 = 8.1; infection score, replicate 2 = 10.3; cell count, replicate 1 = 5592; cell count, replicate 2 = 4994.
After knock-down of CG15483 [DRSC02493] the results were infection score, replicate 1 = 0.86; infection score, replicate 2 = 7.36; cell count, replicate 1 = 700; cell count, replicate 2 = 5978.
For CG30026 [DRSC05276] the deposit lists infection score, replicate 1 = 0.76; infection score, replicate 2 = 0.74; cell count, replicate 1 = 6609; cell count, replicate 2 = 5973.
After knock-down of CG30026 [DRSC29320], the screen gave cell count, replicate 1 = 267; cell count, replicate 2 = 382.
With knock-down of Ugt49B1 (UDP-glycosyltransferase family 49 member B1) [DRSC04461] the results were infection score, replicate 1 = 16.3; infection score, replicate 2 = 16.7; cell count, replicate 1 = 6503; cell count, replicate 2 = 6635.
Against Ugt49B1 (UDP-glycosyltransferase family 49 member B1) [DRSC26568], the entry reads infection score, replicate 1 = 4.67; infection score, replicate 2 = 9.9; cell count, replicate 1 = 5910; cell count, replicate 2 = 5760.

Laid out differently: results already given
predicted target	dsRNA	infection score, replicate 1	infection score, replicate 2	cell count, replicate 1	cell count, replicate 2
CG30026	DRSC29320			267	382
Ugt49B1 (UDP-glycosyltransferase family 49 member B1)	DRSC04461	16.3	16.7	6503	6635
